Taken from: PubChem BioAssay AID1259414 (Drosophila RNAi Screening Center, 2018)

- Purpose: 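Fly genes that alter Wolbachia amount inside host cells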 (primary screen)
- Cell system: Drosophila JW18 cells infected with Wolbachia
- Reagents: long dsRNA against Drosophila genes, 0.25 µg dsRNA per well of a 384-well plate
- Time to read-out: 5 days
- Treatment: cells persistently infected with Wolbachia before knock-down; no added drug
- Detection: 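Automated imaging of bacterial rRNA staining divided by host cell count, reported as plate-normalised robust z-score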
- Direction: Wolbachia per cell robust z: higher = more Wolbachia per host cell than the plate typical
- Active means: 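Active if absolute robust z reaches 1.5 in two or more of three replicates, leaving out multi- or no-target dsRNAs, genes unexpressed in JW18 and A1 wells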
In all, the deposit lists about 24,000 reagents; below is an unselected part of those with a known target gene and a result. Over the whole deposit, about 1,210 (5%) were called active. 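Inactive calls also include excluded dsRNAs with several or no targets, genes unexpressed in JW18, and well A1, regardless of score.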 Entries without a mark were called inactive. The numbers tell different reagents against one gene apart. A plus sign joins genes that one reagent is predicted to hit.

gene knocked down	reagent	Wolbachia per cell robust z, rep 1	Wolbachia per cell robust z, rep 2	Wolbachia per cell robust z, rep 3
CG31076	1	0.0286	1.07	-4.25
Octbeta1R (Octopamine beta1 receptor)	1	-1.2	-5.28	-1.11
Octbeta1R (Octopamine beta1 receptor)	2	0.0614	-1.07	0.742
RluA-1 (RluA pseudouridine synthase 1)	1	-0.146	-0.284	-5.04
RluA-1 (RluA pseudouridine synthase 1)	2	0.969	0.736	0.566
BckdhA (Branched chain keto acid dehydrogenase E1 subunit alpha)	1	0.792	-2.78	0.365
Tbp (TATA binding protein)	1	0.691	0.522	-1.06
dtn (detonator)	1	-0.411	-0.0431	-0.198
dtn (detonator)	2	-5.86 (active)	-0.493	-10.1
CG44325	1	-0.514	-4.75	-0.943
CG44325	2	-1.85	-1.01	-0.343
CG34107	1	-0.142	0.189	-4.85
ppk13 (pickpocket 13)	1	0.141	0.613	0.386
velo (veloren)	1	3.17 (active)	3.53	4.66
velo (veloren)	2	1.37	-3.23	1.8
velo (veloren)	3	1.43 (active)	1.84	1.54
AGO3 (Argonaute 3)	1	-1.49	-0.937	-0.696
Pmi + PGRP-LD + Cralbp	1	0.134	-1.51	-2.78

Next part, starting with the last 4 of the part before.
gene knocked down	reagent	Wolbachia per cell robust z, rep 1	Wolbachia per cell robust z, rep 2	Wolbachia per cell robust z, rep 3
velo (veloren)	2	1.37	-3.23	1.8
velo (veloren)	3	1.43 (active)	1.84	1.54
AGO3 (Argonaute 3)	1	-1.49	-0.937	-0.696
Pmi + PGRP-LD + Cralbp	1	0.134	-1.51	-2.78
IntS4 (Integrator 4)	1	4.14	0.803	0.342
CG33669 + CG33664 + CG33666 + 3 more	1	-0.764	-4.37	0.136
bchs + CG14000	1	0.506	1.07	2.43
CG9518	1	-0.0854	-0.942	1.02
CG9518	2	0.0595	-1.57	-0.534
Obp99d (Odorant-binding protein 99d)	1	-1.54	0.52	0.632
Pfdn2 (Prefoldin 2)	1	0.997	0.257	-0.472
CG33095	1	-0.93	0.615	-0.326
obst-B (obstructor-B)	1	0.913	0.181	0.851
CG34456	1	0.427	0.473	0.828
